## Primary screen of a compound library

Source: ChEMBL document CHEMBL3988442, “University of Dundee, Small-Polar-MMV Screening Library” (2021).

Values are the deposited “Percent Effect”, in %.
The controls that fix the scale are not given in the record; negative values are as filed.
Many other results are left out here, so strong results are more common than in the screen.

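Phenotypic screen: M. tuberculosis growth, glucose 7H9 medium, 3 days; the read-out is not stated. Compounds at 500 µM. The record gives no direction; compounds that gave an IC50 in retests scored well above the rest, so higher reads as more growth inhibition. About 18,000 compounds were tested under these conditions; 7.9% (about 1,400) showed 50% or more at least once.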

SMILES	effect
O=S(=O)(c1cccnc1)N1CCOCC1	4.835%
Cc1cc(CN)c(C)s1	-0.1272%
CCC(=O)N1CCN(Cc2ccc(Br)cn2)CC1	30.03%
CC(C)(CNC(=O)NCCc1cccc(F)c1)C(N)=O	25.91%
CC(C)(O)COc1ccc(S(C)(=O)=O)cc1	10.12%
CCS(=O)(=O)NCc1ccccc1F	17.3%
CC[C@@H](CO)NCc1cnn(-c2ccc(F)cc2)c1	26.35%
CN(C)C(=O)C1CCN(Cc2ccc(F)cc2)CC1	1.279%
CC(C)(C#N)CCCSc1cnn[nH]1	25.99%
O=C(Nc1ccc2c(c1)C(=O)NC2=O)c1ccc(Br)o1	7.86%
CC1(C(=O)NCCOC(N)=O)CCCc2ccccc21 (centres unmarked)	5.771%
CCC(C)(C)NC(=O)c1nnn(-c2ccccc2)c1C	70.17%
Cc1ncsc1C(=O)N1CCOc2cccc(F)c2C1	45.05%
COc1ccc(-c2noc(C3(O)CCCC3)n2)cn1	64.67%
C[n+]1ccn(C(=O)N2CCCC2)c1.[I-]	19.01%
O=C(NCC1CCCNC1)OCc1ccccc1 (centres unmarked)	20.23%
COCCn1nc(C(=O)Nc2cc(C)on2)ccc1=O	2.02%
CN(C)[C@@H]1CN(C(=O)c2nccn2C)C[C@H]1CO	-11.3%
Cc1nn(C)c(C)c1S(=O)(=O)N[C@@H]1C=C[C@H](CO)C1	6.221%
Clc1ccc2c(c1)CNCCO2	45.17%
CNCc1csc(C(C)C)n1	-21.21%
CC(=O)N1CCC(CN(C)Cc2ccc(Br)o2)C1 (centres unmarked)	50.41%
Cc1cccc(NC(=O)CC2CCS(=O)(=O)C2)c1C (centres unmarked)	3.583%
COCCC1CN(C(=O)c2ccc(C)c(F)c2)CCO1 (centres unmarked)	59.06%
CCN(Cc1c(OC)ccc(F)c1F)[C@H]1COC[C@@H]1O	17.86%
Cn1ccc(C(=O)NCc2csc(Br)c2)cc1=O	57.51%
CC1(C)CN(c2ccc3nnnn3n2)C1(C)C	1.706%
CC(=O)Nc1nc(COc2ccccc2C(N)=O)cs1	24.91%
CS(=O)(=O)c1ccc(NC(=O)Cn2ccnc2)cc1	10.91%
COc1cc(F)ccc1NC(=O)c1ccncc1	35.54%
COc1ccc(CCSc2nnc[nH]2)cc1	71.36%
CC(C(=O)Nc1nc2c(s1)CCCC2)n1cncn1 (centres unmarked)	5.101%
CCNC(=O)C1CCCN(c2ccncc2Cl)C1 (centres unmarked)	78.47%
CCN(CCOC)C(=O)c1cc(-c2cccn2C)n[nH]1	-0.07939%
Cc1ncsc1C(=O)NC1CCNCC1	-3.357%
N#CC(N)C1CCOCC1 (centres unmarked)	1.655%
Nc1ncccc1CNC(=O)[C@H]1CCC[C@@H](O)C1	13.75%
O=C1NC[C@@H]2[C@H]1CCCN2C(=O)c1cc(C2CC2)on1	7.662%
COC(=O)NCCc1ccccc1OC	61.37%
CC(O)CN1CCN(C(=O)c2cc(Br)c[nH]2)CC1 (centres unmarked)	23.62%
CCOC(=O)N1CCN(C(=O)c2onc(C)c2Cl)CC1	36.1%
Cn1ccc(C(=O)N2CCC2c2ccccc2)cc1=O (centres unmarked)	14.23%
COc1cccc(C(=O)NC2CCN(C(C)C)CC2)c1	18.85%
CC(C)CN1CCNC(=O)C1	1.014%
NC(=O)C(c1ccccc1)N1CCCC1 (centres unmarked)	-0.9581%
CC(CC(=O)NCc1ccccc1)n1cccn1 (centres unmarked)	9.922%
Cc1cc(C)c(C(=O)N2CCOCC(CO)C2)c(=O)[nH]1 (centres unmarked)	-7.518%
CN(Cc1ccsc1)C(=O)CNC(=O)c1ccc(Br)o1	81.2%
Cc1ccc(S(=O)(=O)NCC(C)N)cc1Br (centres unmarked)	36.84%
CCCN1CCC(NC(=O)c2ccncc2)CC1	16.21%
COCCn1cnnc1CN(C)Cc1c[nH]c(C)n1	-3.804%
Cc1cccc(-n2cc(CN)cn2)c1	44.26%
CNCCCNC(=O)c1coc(Br)c1	6.344%
CSc1ncccc1C(=O)NC(C)c1nc(C)c[nH]1 (centres unmarked)	4.882%
CCC(N)(CC)CNS(=O)(=O)c1cccc2nonc12	-21.04%
CC(C#N)N1CCOCC1 (centres unmarked)	-1.537%
Cc1nc(CN2CCCNCC2)oc1C	0.9507%
Cc1cc(NCc2ncc[nH]2)ccc1F	45.13%
CC(=O)C1CCCN(C)C1 (centres unmarked)	-10.93%
CN(C)CCC(O)c1ccccc1 (centres unmarked)	22.33%
CSc1ccc(CC(=O)N(C)Cc2ccon2)cc1	55.94%
CS(=O)(=O)N1CCC(C(=O)N2CCCC2)CC1	9.208%
O=C(C1CC1)N1CCCC(CN2CCOCC2)CC1 (centres unmarked)	8.394%
O=C(NCC1CCCO1)c1cc(-c2cccs2)on1 (centres unmarked)	68.06%
CS(=O)(=O)Nc1cccc(CNC(=O)C2CCC2)c1	15.6%
O=C(NCCNC(=O)C1CCCC1)c1ccccc1O	55.44%
CC(=O)NC(c1nc(-c2ccncc2)no1)C(C)C (centres unmarked)	27.23%
Cc1cc(=O)[nH]c(CCNC(=O)[C@H]2CCC[C@H](O)C2)n1	-3.8%
CNCc1nc(-c2ccccc2)c[nH]1	25.79%
CN(Cc1ccoc1)C(=O)CN(C)C1CCNCC1	-2.748%
CC(C)(CO)NC(=O)CCC(=O)c1cccs1	9.124%
CC(N)CC1CCOCC1 (centres unmarked)	-1.329%
CC(C)(C)c1nc(C(C)(C)N)no1	0.2492%
NCc1nc(-c2ccccn2)no1	-0.03095%
Nc1cnccc1OCc1ccccc1	35.96%
CCn1cnnc1CNC(=O)N1CCCN(C)CC1	-3.238%
COc1cccc(CCC(=O)N2CCCC2)c1	75.82%
O=C(Cn1cc(Br)cn1)Nc1ccc2c(c1)OCCO2	53.5%
CCOCCC(=O)N1CCN(c2ccc(F)cc2)CC1	74.51%
CS(=O)(=O)c1ccc(N2CCNCC2)cc1	5.784%

For reference, 7 entries once more:

SMILES,effect
CCNC(=O)C1CCCN(c2ccncc2Cl)C1 (centres unmarked),78.47%
CC(=O)NC(c1nc(-c2ccncc2)no1)C(C)C (centres unmarked),27.23%
Cc1cc(CN)c(C)s1,-0.1272%
CS(=O)(=O)Nc1cccc(CNC(=O)C2CCC2)c1,15.6%
CC(C)(C#N)CCCSc1cnn[nH]1,25.99%
CC(C)(C)c1nc(C(C)(C)N)no1,0.2492%
Nc1ncccc1CNC(=O)[C@H]1CCC[C@@H](O)C1,13.75%